Patent US10975059B2, “Small molecule BRD4 modulators for HIV epigenetic regulation” (The Board of Regents of The University of Texas System, priority 2017, dated 2021)

Assays:
Type in all cases: cell-based
human PBMCs / T cells = test: T-cell phenotypes, activation markers and gene expression in PBMCs; conditions: 8 μM
Tat and NF-κB protein = test: Western blot of Tat and NF-κB in J-Lat cells; conditions: PMA + compound, 24 hours
[1] = tested on: BRD4, CDK9, Cyclin T1/T2, AFF4; test: Western blot of transcription elongation proteins in J-Lat cells; conditions: PMA + compound, 24 hours

| Compound | expression of HIV entry receptors (CD4 and CCR5) (human PBMCs / T cells; 3 days) | expression of 17 genes associated with T-cell phenotypes and functions (human PBMCs / T cells; PHA-activated and resting PBMCs) | Tat protein expression (Tat and NF-κB protein) | expression of BRD4, CDK9, Cyclin T1/T2, AFF4 [1] |
| --- | --- | --- | --- | --- |
| O=C(Nc1ccc(C(F)(F)F)cc1)Nc1ccc(S(=O)(=O)N2CCCC2C(=O)Nc2ccccc2)cc1 (stereo in doubt) [ZL0580, (R)—N-Phenyl-1-((4-(3-(4-(trifluoromethyl)phenyl)ureido)phenyl)sulfonyl)pyrrolidine-2-carboxamide] | did not significantly alter the expression of HIV entry receptors (CD4 and CCR5) on CD4 T cells | did not significantly alter the expression of these genes in PBMCs | did not significantly (or slightly) reduce Tat protein | Neither ZL0580 (PMA+ZL0580) nor JQ1 (PMA+JQ1) treatment altered expression of these proteins |
| Cc1sc2c(c1C)C(c1ccc(Cl)cc1)=N[C@@H](CC(=O)OC(C)(C)C)c1nnc(C)n1-2 [JQ1, reference compound] |  |  |  | Neither ZL0580 (PMA+ZL0580) nor JQ1 (PMA+JQ1) treatment altered expression of these proteins |
